# Measured values published in EP4821928A1, “BICYCLIC HETEROCYCLIC COMPOUND AND FUNGICIDE FOR AGRICULTURAL AND HORTICULTURAL USE CONTAINING SAME AS ACTIVE INGREDIENT” (dated 2026).
# Key:
# [1] = tested on: Gray mold fungus (Botrytis cinerea); assay: Gray mold anti-germ test (Test Example C); details: 50 ppm/well; Czapek-dox broth; 25°C for 3 days; absorbance 600 nm
# Magnaporthe grisea = assay: Rice blast disease pot test (Test Example A); details: 250 ppm sprayed, 2.5 ml/pot; rice variety Sachikaze; degree of disease development 6 to 8 days after inoculation
# [2] = tested on: Anthracnose fungus (Glomerella cingulata); assay: Anthracnose anti-germ test (Test Example E); details: 50 ppm/well; Czapek-dox broth; 25°C for 3 days; absorbance 600 nm
# Botrytis cinerea = assay: Tomato gray mold pot test (Test Example B); details: 250 ppm sprayed, 2.5 ml/pot; tomato variety Oogata Fukuju; degree of disease development 2 to 3 days after inoculation
# [3] = tested on: Fusarium blight fungus (Fusarium graminearum); assay: Fusarium blight anti-germ test (Test Example D); details: 50 ppm/well; Czapek-dox broth; 25°C for 3 days; absorbance 600 nm
# [4] = tested on: Speckled leaf blotch fungus (Septoria tritici); assay: Speckled leaf blotch anti-germ test (Test Example F); details: 50 ppm/well; Czapek-dox broth; 25°C for 3 days; absorbance 600 nm
Compound,Gray mold anti-germ test (rate of inhibition) [1],Rice blast disease pot test (control value) (Magnaporthe grisea),Anthracnose anti-germ test (rate of inhibition) [2],Tomato gray mold pot test (control value) (Botrytis cinerea),Fusarium blight anti-germ test (rate of inhibition) [3],Speckled leaf blotch anti-germ test (rate of inhibition) [4]
COc1cccc2c1OC(C)(C)N=C2n1cnc2c(Cl)cccc21,H (H represents a control value or rate of inhibition of larger than 50%),L (L represents a control value or rate of inhibition of 50% or less),H (H represents a control value or rate of inhibition of larger than 50%),H (H represents a control value or rate of inhibition of larger than 50%),L (L represents a control value or rate of inhibition of 50% or less),L (L represents a control value or rate of inhibition of 50% or less)
CC1(C)N=C(n2cnc3c(Cl)cccc32)c2ccc(F)c(F)c2O1,H (H represents a control value or rate of inhibition of larger than 50%),H (H represents a control value or rate of inhibition of larger than 50%),L (L represents a control value or rate of inhibition of 50% or less),H (H represents a control value or rate of inhibition of larger than 50%),L (L represents a control value or rate of inhibition of 50% or less),L (L represents a control value or rate of inhibition of 50% or less)
Cc1c(F)ccc2c1ncn2C1=NC(C)(C)Oc2c(Cl)cccc21,H (H represents a control value or rate of inhibition of larger than 50%),H (H represents a control value or rate of inhibition of larger than 50%),H (H represents a control value or rate of inhibition of larger than 50%),H (H represents a control value or rate of inhibition of larger than 50%),H (H represents a control value or rate of inhibition of larger than 50%),L (L represents a control value or rate of inhibition of 50% or less)
Cc1cccc2c1S(=O)(=O)C(C)(C)N=C2n1cnc2c(C)c(C)ccc21,H (H represents a control value or rate of inhibition of larger than 50%),H (H represents a control value or rate of inhibition of larger than 50%),H (H represents a control value or rate of inhibition of larger than 50%),H (H represents a control value or rate of inhibition of larger than 50%),H (H represents a control value or rate of inhibition of larger than 50%),H (H represents a control value or rate of inhibition of larger than 50%)
Cc1cccc2c1OC(C)(C)N=C2n1cnc2c(F)cccc21,H (H represents a control value or rate of inhibition of larger than 50%),H (H represents a control value or rate of inhibition of larger than 50%),H (H represents a control value or rate of inhibition of larger than 50%),H (H represents a control value or rate of inhibition of larger than 50%),H (H represents a control value or rate of inhibition of larger than 50%),H (H represents a control value or rate of inhibition of larger than 50%)
Cc1cccc2c1OC(C)(C)N=C2n1cnc2c(C)c(Cl)ccc21,H (H represents a control value or rate of inhibition of larger than 50%),H (H represents a control value or rate of inhibition of larger than 50%),H (H represents a control value or rate of inhibition of larger than 50%),L (L represents a control value or rate of inhibition of 50% or less),H (H represents a control value or rate of inhibition of larger than 50%),H (H represents a control value or rate of inhibition of larger than 50%)
Cc1ccc2c(ncn2C2=NC(C)(C)Sc3ccccc32)c1C,H (H represents a control value or rate of inhibition of larger than 50%),H (H represents a control value or rate of inhibition of larger than 50%),H (H represents a control value or rate of inhibition of larger than 50%),H (H represents a control value or rate of inhibition of larger than 50%),H (H represents a control value or rate of inhibition of larger than 50%),L (L represents a control value or rate of inhibition of 50% or less)
COc1ccc2c(c1)OC(C)(C)N=C2n1cnc2c(C)c(C)ccc21,H (H represents a control value or rate of inhibition of larger than 50%),H (H represents a control value or rate of inhibition of larger than 50%),H (H represents a control value or rate of inhibition of larger than 50%),H (H represents a control value or rate of inhibition of larger than 50%),H (H represents a control value or rate of inhibition of larger than 50%),H (H represents a control value or rate of inhibition of larger than 50%)
CCc1cccc2c1ncn2C1=NC(C)(C)Oc2c(C)cccc21,H (H represents a control value or rate of inhibition of larger than 50%),H (H represents a control value or rate of inhibition of larger than 50%),H (H represents a control value or rate of inhibition of larger than 50%),H (H represents a control value or rate of inhibition of larger than 50%),L (L represents a control value or rate of inhibition of 50% or less),H (H represents a control value or rate of inhibition of larger than 50%)
Cc1ccc2c(ncn2C2=NC(C)(C)Oc3c(Cl)cccc32)c1C,H (H represents a control value or rate of inhibition of larger than 50%),H (H represents a control value or rate of inhibition of larger than 50%),H (H represents a control value or rate of inhibition of larger than 50%),H (H represents a control value or rate of inhibition of larger than 50%),H (H represents a control value or rate of inhibition of larger than 50%),L (L represents a control value or rate of inhibition of 50% or less)
C=C(C)c1cccc2c1ncn2C1=NC(C)(C)Oc2c(C)cccc21,H (H represents a control value or rate of inhibition of larger than 50%),H (H represents a control value or rate of inhibition of larger than 50%),H (H represents a control value or rate of inhibition of larger than 50%),L (L represents a control value or rate of inhibition of 50% or less),L (L represents a control value or rate of inhibition of 50% or less),L (L represents a control value or rate of inhibition of 50% or less)
Cc1cccc2c1OC1(CCC1)N=C2n1cnc2c(C)c(C)ccc21,H (H represents a control value or rate of inhibition of larger than 50%),H (H represents a control value or rate of inhibition of larger than 50%),H (H represents a control value or rate of inhibition of larger than 50%),H (H represents a control value or rate of inhibition of larger than 50%),H (H represents a control value or rate of inhibition of larger than 50%),H (H represents a control value or rate of inhibition of larger than 50%)
